{"source": "PubChem BioAssay AID624099 (ICCB-Longwood, 2012)", "assay": "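Human genes that papillomavirus E2 requires to repress the HPV18 LCR promoter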 (primary screen)", "system": "human C33A cervical carcinoma cells (HPV-negative) stably expressing BPV1 E2 and an HPV18 LCR luciferase reporter", "reagent": "siRNA pool against human genes, 40 nM", "duration": "72 h", "measurement": "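HPV18 LCR reporter light per well, converted to plate-wise z-scores that exclude control wells, and averaged over triplicate plates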", "scale": "mean z-score and z-score: higher = stronger reporter signal, weaker E2 silencing", "active means": "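Hit if mean z-score reaches 2 and two or more of three replicate z-scores also reach 2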", "note": "Here is a random part of about 21,000 reagents. Of all reagents, 497 (2.4%) are marked active. 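Higher z means weaker E2 silencing; only reporter increases were scored, and knock-downs that hurt cell survival may mask genuine repressor factors.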"}
The first 2 records as a preview:
{"gene knocked down": "IL36B (interleukin 36 beta)", "mean z-score": -0.53, "z-score, replicate A": -0.53, "z-score, replicate B": -0.42, "z-score, replicate C": -0.65, "outcome": "inactive"}
{"gene knocked down": "CBX7 (chromobox 7)", "mean z-score": -0.53, "z-score, replicate A": -0.53, "z-score, replicate B": -0.59, "z-score, replicate C": -0.48, "outcome": "inactive"}

The listing, from the start:
{"gene knocked down": "IL36B (interleukin 36 beta)", "mean z-score": -0.53, "z-score, replicate A": -0.53, "z-score, replicate B": -0.42, "z-score, replicate C": -0.65, "outcome": "inactive"}
{"gene knocked down": "CBX7 (chromobox 7)", "mean z-score": -0.53, "z-score, replicate A": -0.53, "z-score, replicate B": -0.59, "z-score, replicate C": -0.48, "outcome": "inactive"}
{"gene knocked down": "DNAH17 (dynein axonemal heavy chain 17)", "mean z-score": -0.72, "z-score, replicate A": -0.53, "z-score, replicate B": -0.98, "z-score, replicate C": -0.66, "outcome": "inactive"}
{"gene knocked down": "ADRA2B (adrenoceptor alpha 2B)", "mean z-score": -0.27, "z-score, replicate A": -0.46, "z-score, replicate B": -0.34, "z-score, replicate C": -0.02, "outcome": "inactive"}
{"gene knocked down": "AFF3 (ALF transcription elongation factor 3)", "mean z-score": 0.54, "z-score, replicate A": 0.52, "z-score, replicate B": 0.49, "z-score, replicate C": 0.61, "outcome": "inactive"}
{"gene knocked down": "IFI35 (interferon induced protein 35)", "mean z-score": -0.19, "z-score, replicate A": 0.01, "z-score, replicate B": -0.32, "z-score, replicate C": -0.25, "outcome": "inactive"}
{"gene knocked down": "C2orf74-DT (C2orf74 divergent transcript)", "mean z-score": -0.34, "z-score, replicate A": -0.55, "z-score, replicate B": -0.39, "z-score, replicate C": -0.09, "outcome": "inactive"}
{"gene knocked down": "ERO1A (endoplasmic reticulum oxidoreductase 1 alpha)", "mean z-score": -0.38, "z-score, replicate A": -0.43, "z-score, replicate B": -0.34, "z-score, replicate C": -0.37, "outcome": "inactive"}
{"gene knocked down": "FBXL5 (F-box and leucine rich repeat protein 5)", "mean z-score": 0.09, "z-score, replicate A": 0.32, "z-score, replicate B": -0.17, "z-score, replicate C": 0.1, "outcome": "inactive"}
{"gene knocked down": "SLC9D1", "mean z-score": -1.07, "z-score, replicate A": -0.37, "z-score, replicate B": -1.25, "z-score, replicate C": -1.58, "outcome": "inactive"}
{"gene knocked down": "BTAF1 (B-TFIID TATA-box binding protein associated factor 1)", "mean z-score": 1.17, "z-score, replicate A": 1.04, "z-score, replicate B": 1, "z-score, replicate C": 1.48, "outcome": "inactive"}
{"gene knocked down": "ZNF281 (zinc finger protein 281)", "mean z-score": -0.4, "z-score, replicate A": -0.36, "z-score, replicate B": -0.77, "z-score, replicate C": -0.05, "outcome": "inactive"}
{"gene knocked down": "H2AC11 (H2A clustered histone 11)", "mean z-score": 0.76, "z-score, replicate A": 1.02, "z-score, replicate B": 0.62, "z-score, replicate C": 0.64, "outcome": "inactive"}
{"gene knocked down": "LOC402253 (retired record)", "mean z-score": -0.33, "z-score, replicate A": 0.07, "z-score, replicate B": 0.34, "z-score, replicate C": -1.38, "outcome": "inactive"}
